# T1: PE18 (Rv1788) from Mycobacterium tuberculosis (Mycobacterium tuberculosis H37Rv), L7N649
# T1 chain: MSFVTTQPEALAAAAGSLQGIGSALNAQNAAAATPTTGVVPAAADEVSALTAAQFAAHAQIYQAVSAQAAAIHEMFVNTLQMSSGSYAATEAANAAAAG
# Target: T1, PE18 (Rv1788) from Mycobacterium …
# Assay: BLI
# Settings: remark: other sources report otherwise
binder,measurement,value
"PPE26 (Rv1789) from Mycobacterium tuberculosis, Q79FK6 1-393 (natural protein) MDFGALPPEVNSVRMYAGPGSAPMVAAASAWNGLAAELSSAATGYETVITQLSSEGWLGPASAAMAEAVAPYVAWMSAAAAQAEQAATQARAAAAAFEAAFAATVPPPLIAANRASLMQLISTNVFGQNTSAIAAAEAQYGEMWAQDSAAMYAYAGSSASASAVTPFSTPPQIANPTAQGTQAAAVATAAGTAQSTLTEMITGLPNALQSLTSPLLQSSNGPLSWLWQILFGTPNFPTSISALLTDLQPYASFFYNTEGLPYFSIGMGNNFIQSAKTLGLIGSAAPAAVAAAGDAAKGLPGLGGMLGGGPVAAGLGNAASVGKLSVPPVWSGPLPGSVTPGAAPLPVSTVSAAPEAAPGSLLGGLPLAGAGGAGAGPRYGFRPTVMARPPFAG",Kd,610 nM
